# Source: article PMC8036510, “The Inhibitory Effects of Plant Derivate Polyphenols on the Main Protease of SARS Coronavirus 2 and Their Structure–Activity Relationship” (Molecules, 2021)
# Target: SARS-CoV-2 M^pro (Severe acute respiratory syndrome coronavirus 2, UniProt P0DTD1)
# Conditions: pH 7.5
substance,measurement,value
Catechin gallate [Catechin gallate (CG)],Inhibition (%),21%
